Pooled drug test results. Numbers come from NIAID ChemDB, via PubChem.

All rows: whole-cell or culture tests; agent: Staphylococcus aureus

Blank or dashed fields: not listed here. MIC50, MIC90 and the like: level of inhibition, or share of isolates inhibited. Conditions beyond the fields shown may differ between rows.

compound | strain | measure | value
CC[C@H]1OC(=O)C[C@@H](O)[C@H](C)[C@@H](O[C@@H]2O[C@H](C)[C@@H](O)[C@H](N(C)C)[C@H]2O)C(C=O)C[C@@H](C)C(=O)/C=C/C(C)=C/[C@@H]1COC(=O)NCc1ccccc1 | 25923 (erythromycin-susceptible) | MIC | 0.5 µg/mL
COc1c(-c2ccc3c(c2)CNC3C)c(F)cc2c(=O)c(C(=O)O)cn(C3CC3)c12 | FDA209P | MIC | 0.0156 µg/mL
C[C@H]1NCc2cc(-c3ccc4c(=O)c(C(=O)O)cn(C5CC5)c4c3OC(F)F)ccc21 | A15090 (methicillin-susceptible) | MBC | 0.03 µg/mL
CC[C@H]1OC(=O)C[C@@H](O)[C@H](C)[C@@H](O[C@@H]2O[C@H](C)[C@@H](O)[C@H](N(C)C)[C@H]2O)C(C=O)C[C@@H](C)C(=O)/C=C/C(C)=C/[C@@H]1COC(=O)Nc1ccc(OC)cc1 | 25923 (erythromycin-susceptible) | MIC | 1 µg/mL
COc1c(-c2ccc3c(c2)C(C)NC3)c(F)cc2c(=O)c(C(=O)O)cn(C3CC3)c12 | FDA209P | MIC | 0.0156 µg/mL
CC(=O)NC[C@H]1CN(c2ccc(C(=O)N(C)C)c(F)c2)C(=O)O1 | ATCC 29213 (linezolid-resistant) | MIC | >64 µg/mL
CC[C@H]1OC(=O)C[C@@H](O)[C@H](C)[C@@H](O[C@@H]2O[C@H](C)[C@@H](O)[C@H](N(C)C)[C@H]2O)C(C=O)C[C@@H](C)C(=O)/C=C/C(C)=C/[C@@H]1COC(=O)Nc1ccc([N+](=O)[O-])cc1 | 25923 (erythromycin-susceptible) | MIC | 1 µg/mL
CCCCCCCCCCCC[N+](C)(C)COC1CCCC1 | ATCC 6538 | MIC | 1.44 µM
CC[C@H]1OC(=O)C[C@@H](O)[C@H](C)[C@@H](O[C@@H]2O[C@H](C)[C@@H](O)[C@H](N(C)C)[C@H]2O)C(C=O)C[C@@H](C)C(=O)/C=C/C(C)=C/[C@@H]1CO | 25923 (erythromycin-susceptible) | MIC | 2 µg/mL
CC(=O)NC[C@H]1CN(c2ccc(C(=O)Nc3ncn[nH]3)c(F)c2)C(=O)O1 | ATCC 29213 (linezolid-resistant) | MIC | >64 µg/mL
CC[C@H]1OC(=O)C[C@@H](O)[C@H](C)[C@@H](O[C@@H]2O[C@H](C)[C@@H](O)[C@H](N(C)C)[C@H]2O)C(C=O)C[C@@H](C)C(=O)/C=C/C(C)=C/[C@@H]1COCOC | 25923 (erythromycin-susceptible) | MIC | 0.5 µg/mL
O=C(NC[C@H]1CN(c2ccc(C3CCS(=O)(=O)CC3)c(F)c2)C(=O)O1)C1CC1 | UC 12673 | MIC | 8 µg/mL
CCCCCCCCCCCC[N+](C)(C)COCC(C)C | ATCC 6538 | MIC | 2.98 µM
CO/N=C1\CN(c2nc3c(cc2F)c(=O)c(C(=O)O)cn3C2CC2)CC1CN | KU2243 | MIC | 32 µg/mL
CC[C@H]1OC(=O)C[C@@H](O)[C@H](C)[C@@H](O[C@@H]2O[C@H](C)[C@@H](O)[C@H](N(C)C)[C@H]2O)C(C=O)C[C@@H](C)C(=O)/C=C/C(C)=C/[C@@H]1COC/C=C/c1cnc2ccccc2c1 | 25923 (erythromycin-susceptible) | MIC | 0.5 µg/mL
CCCCCCCC[N+](C)(C)COCCC(C)CCCC(C)C | ATCC 6538 | MIC | 13.7 µM
CC(=O)NC[C@H]1CN(c2ccc(C(=O)NO)c(F)c2)C(=O)O1 | ATCC 29213 (linezolid-resistant) | MIC | 64 µg/mL
CCC(=O)NC[C@H]1CN(c2ccc(C3CCS(=O)(=O)CC3)c(F)c2)C(=O)O1 | UC 12673 | MIC | 4 µg/mL
CC(C)(C)n1cc(C(=O)O)c(=O)c2cc(F)c(N3C[C@H]4C[C@@H]3CN4)nc21 | 61 strains (methicillin-susceptible) | MIC90 | 0.13 µg/mL
CC(=O)NC[C@H]1CN(c2ccc(C(=O)Nc3nccs3)c(F)c2)C(=O)O1 | ATCC 29213 (linezolid-resistant) | MIC | >64 µg/mL
CN[C@@H]1CN(c2c(F)cn3c(=O)c(C(=O)O)cc(C4CC4)c3c2C)C[C@@H]1C | NCTC 10649M | MIC | 0.02 µg/mL
COc1c(N2CC[C@@H]([C@H](C)NC/C=C/C3=C(C(=O)O)N4C(=O)[C@@H](NC(=O)COc5ccccc5)[C@H]4CC3)C2)c(F)cc2c(=O)c(C(=O)O)cn(C3CC3)c12 | - | MIC | 0.03 µg/mL
CC(=O)NC[C@H]1CN(c2ccc(-n3cnc(C=CC#N)c3)c(F)c2)C(=O)O1 | Novobiocin-resistant | MIC | 0.25 µg/mL
CC(=O)NC[C@H]1CN(c2ccc(C(=O)Nc3ncc[nH]3)c(F)c2)C(=O)O1 | ATCC 29213 (linezolid-resistant) | MIC | >64 µg/mL
O=C(O)c1cn(C2CC2)c2c(OC(F)F)c(-c3ccc4c(c3)CNC4)c(F)cc2c1=O | FDA209P | MIC | 0.0313 µg/mL
CCCCCCCCCCCC[N+](C)(C)COC1CCCCCCCCCCC1 | ATCC33592 | MIC | 13.4 µM
Cc1c(N2C[C@H](N)[C@H](C3CC3)C2)c(F)cn2c(=O)c(C(=O)O)cc(C3CC3)c12 | NCTC 10649M | MIC | 0.02 µg/mL
COc1c(-c2ccc3c(c2)CNC3)ccc2c(=O)c(C(=O)O)cn(C3CC3)c12 | FDA209P | MIC | 0.0313 µg/mL
CC[C@H]1OC(=O)C[C@@H](O)[C@H](C)[C@@H](O[C@@H]2O[C@H](C)[C@@H](O)[C@H](N(C)C)[C@H]2O)C(C=O)C[C@@H](C)C(=O)/C=C/C(C)=C/[C@@H]1COC(=O)Nc1ccc(Cl)cc1 | 25923 (erythromycin-susceptible) | MIC | 0.5 µg/mL
CNC1CN(c2c(F)cn3c(=O)c(C(=O)O)cc(C4CC4)c3c2C)CC1C | NCTC 10649M | MIC | 0.02 µg/mL
CSCC(=O)NC[C@H]1CN(c2ccc(C(=O)Nc3ccc(Cl)nc3)c(F)c2)C(=O)O1 | ATCC 29213 (linezolid-resistant) | MIC | >64 µg/mL

The last 2 rows once more:

compound | strain | measure | value
CNC1CN(c2c(F)cn3c(=O)c(C(=O)O)cc(C4CC4)c3c2C)CC1C | NCTC 10649M | MIC | 0.02 µg/mL
CSCC(=O)NC[C@H]1CN(c2ccc(C(=O)Nc3ccc(Cl)nc3)c(F)c2)C(=O)O1 | ATCC 29213 (linezolid-resistant) | MIC | >64 µg/mL